The source of these data is doi:10.1101/2024.05.05.592584 (bioRxiv, 2024).

The assay deals with RaTG13 NTD protein (Bat coronavirus RaTG13, UniProt A0ABF7PLN6). Kind of assay: ELISA. The settings on record: both partners purified. On the technique in general: In an ELISA, binding on a coated surface is turned into a signal by an enzyme label.

B1: C1520 IgG (antibody, V domains shown)
VH: EVQLVESGGGLVQPGGSLRLACVASGFTFSIYEMNWVRQAPGKGLEWVSYITTSGHARYNADSVKGRFTISRDNSKNSFYLQMNSLRAEDTAIYYCARPQYHYYDTSTYHSYGFDIWGQGTMVTVSS
VL: QLVLTQSPSASASLGASVNLTCTLSSGHNSYAIAWHQQQPEKGPRYLMSLNSDGSHTKGDGIPDRFSGSSSGAERFLTISSLQSEDEADYYCQTWDTGIRVFGGGTRLTVL
With B1, the binding result is recorded as “binds”.

B2: C1717 IgG (antibody, V domains shown)
VH: QVQLVQSGAEVKKPGSSVKVSCKTSGGTFNSFAINWVRQAPGQGPEWMGRVIPVLEIANYAQKFQGRITITADKSTSTAYMELSSLTSEDTAIYYCARHHIAVAQPYFDYWGQGTLVTVSS
VL: not shown
B2: the binding result is “binds”.
